Laboratory results published in ChEMBL document CHEMBL4715914, “Chemical validation of a druggable site on Hsp27/HSPB1 using in silico solvent mapping and biophysical methods” (Bioorg Med Chem, 2021).

Sequences of proteins named here, by UniProt entry; tags and fusion partners are left off.
UniProt P04792, whole entry, looked up: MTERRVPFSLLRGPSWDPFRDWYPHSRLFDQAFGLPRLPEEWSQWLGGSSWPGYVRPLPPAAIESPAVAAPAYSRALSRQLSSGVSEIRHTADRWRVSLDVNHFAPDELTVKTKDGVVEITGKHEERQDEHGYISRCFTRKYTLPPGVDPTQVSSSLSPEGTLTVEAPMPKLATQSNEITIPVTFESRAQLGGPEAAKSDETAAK

Biological target: Heat shock protein beta-1 (Homo sapiens, UniProt P04792)
Experiment: Binding affinity to HSP27 (79 to 176 residues) (unknown origin) expressed in Escherichia coli BL21 (DE3) cells by HSQC NMR analysis

SMILES | Kd(app)
O=[N+]([O-])c1ccc(Oc2ccc(Oc3ccc([N+](=O)[O-])cc3[N+](=O)[O-])c(F)c2)c([N+](=O)[O-])c1 | inactive
O=[N+]([O-])c1ccc(Oc2ccc(Oc3ccc([N+](=O)[O-])cc3[N+](=O)[O-])cc2)c([N+](=O)[O-])c1 | inactive

Calls of active or inactive are those of the source. The calls are words filed in the database; no cut-off is given here.
